System: MBP-Z24FSY
Test: In vivo crosslinking of MBP-Z24FSY with Afb-7X co-expressed in E. coli (Western blot, SDS-PAGE, tandem MS)
Type: cell-based
Conditions: for crosslinking efficiency with MBP-Z24FSY: co-expressed in E. coli 37° C. 6 h, purified His-tagged proteins on SDS-PAGE; for cross-linking bands with MBP-Z24FSY: co-expressed in E. coli, Western blot and SDS-PAGE; for crosslinked peptides with MBP-Z24FSY detected by tandem MS: purified proteins
Description: The inventors then determined whether the incorporated FSY could react with natural amino acid residues via proximity-enabled reactivity directly in E. coli. Afb binds to its substrate Z protein with a moderate affinity, providing a suitable protein framework to study FSY crosslinking in vivo. In light of the crystal structure of Afb-Z complex (Hogbom, et al, P. Proc. Natl. Acad. Sci. USA, 100:3191-3196 (2003)), the inventors introduced FSY at position 24 of Z protein and the target natural residue at position 7 of Afb, placing the two residues in close proximity upon Afb-Z binding (FIG. 3A). As aryl fluorosulfate is a weak electrophile, the inventors decided to test FSY's reactivity toward Lys, His, Tyr, Cys, Ser, and Thr using Ala as a negative control. To better separate the Afb and Z proteins of similar molecular weights, we fused maltose binding protein (MBP) to the N-terminus of Z (MBP-Z). MBP-Z and Afb were both appended with a 6×His-tag at C-terminus. To determine whether chemical crosslinking could occur in living cells, we co-expressed MBP-Z24FSY and Afb-7X (X=target residue) in E. coli. After culturing at 37° C. for 6 h, the same number of cells were analyzed using Western blot under denatured conditions. […] 6×His-tagged proteins were purified from cells and analyzed with SDS-PAGE.
To further validate the in vivo chemical crosslinking ability of FSY, the purified proteins were analyzed using tandem MS.
Afb4A-7X and MBP-Z24FSY: The pEvol-FSYRS and pET-Duet-Afb4A-7X-MBP-Z24TAG were co-transformed into BL21(DE3) E. coli chemical competent cells. The transformants were plated on an LB-Amp100Cm34 agar plate and incubated overnight at 37° C. A single colony was inoculated into 5 mL of 2×YT-Amp100Cm34 and cultured overnight at 37° C. On the following day, 1 mL of overnight cell culture was diluted into 50 mL 2×YT-Amp100Cm34 and agitated vigorously at 37° C. When OD600 reached 0.4˜0.6, the cell culture was induced with 0.5 mM IPTG and 0.2% arabinose, then incubated at 37° C. for 6 h. Cell pellets were collected by centrifugation at 4200 g for 30 min at 4° C. and stored at −80° C.
His-tag protein purification: Above cell pellets were resuspended in 14 mL lysis buffer (50 mM Tris-HCl pH 8.0, 500 mM NaCl, 20 mM imidazole, 1% v/v Tween 20, 10% v/v glycerol, lysozyme 1 mg/mL, DNase 0.1 mg/mL, and protease inhibitors). The cell suspension was lysed at 4° C. for 30 min. Cell lysate was sonicated with Sonic Dismembrator (Fisher Scientific, 30% output, 3 min, 1 sec off, 1 sec on) in an ice-water bath, followed by centrifugation (20,000 g, 30 min, 4° C.). The soluble fractions were collected and incubated with pre-equilibrated Protino®Ni-NTA Agarose resin (400 μL) at 4° C. for 1 h with constant mechanical rotation. The slurry was loaded onto a Poly-Prep® Chromatography Column, washed with 5 mL of wash buffer (50 mM Tris-HCl pH 8.0, 500 mM NaCl, 20 mM imidazole, and 10% v/v glycerol) for 3 times, and eluted with 200 μL of elution buffer (50 mM Tris-HCl, pH 8.0, 500 mM NaCl, 250 mM imidazole, and 10% v/v glycerol) for 5 times. The eluates were concentrated and buffer exchanged into 100 μL of protein storage buffer (50 mM Tris-HCl, pH 7.4 or 8.0, and 150 mM NaCl) using Amicon Ultra columns, and stored at −80° C. for future analysis.
Protein digestion and tandem mass spectrometry measurement were performed as previously described by Yang et al, Nat. Communi., 8:2240 (2017). The Afb/MBP-Z samples were digested with Glu-C. The CaM and Trx1/PAPS reductase samples were digested by trypsin. Digested peptides were analyzed with an in-line EASY-spray source and nano-LC UltiMate 3000 high-performance liquid chromatography system (Thermo Fisher) interfaced with Elite mass spectrometer (Thermo Fisher). Peptides were eluted over gradient of 2%-40% buffer B (80% acetonitrile, 20% H2O, 0.1% formic acid) at flow rate 300 nL/min from EASY-Spray PepMap C18 Columns (50 cm; particle size, 2 μm; pore size, 100 Å; Thermo Fisher). […]

Row | Substance | crosslinking efficiency with MBP-Z24FSY [%] | cross-linking bands with MBP-Z24FSY | crosslinked peptides with MBP-Z24FSY detected by tandem MS
1 | Afb-7His: Zspa affibody (Afb) with His at position 7 | 53 | – | –
2 | Afb-7Lys: Zspa affibody (Afb) with Lys at position 7, C-terminal 6×His-tag | 59 | – | –
3 | Afb-7Ser: Z-binding affibody (Afb) with Ser introduced at position K7 | – | no cross-linking bands were observed | no crosslinked peptides
4 | Afb-7Thr: Z-binding affibody (Afb) with Thr at position 7 | – | no cross-linking bands were observed | no crosslinked peptides
5 | Afb-7Tyr: Zspa affibody (Afb) with Tyr at position 7 | 35 | – | –

Reference: patent US20220371986A1, “METHOD TO GENERATE BIOCHEMICALLY REACTIVE AMINO ACIDS” (The Regents of the University of California, priority 2019, published 2022)
